From patent publication US20200399318A1, “PEPTIDE INHIBITORS OF PHOSPHOGLYCERATE MUTASE AND METHODS OF USE” (priority 2016, published 2020)

System: D. immitis iPGM
Experiment: PGM coupled-enzyme bioluminescent end-point assay (Kinase-Glo Plus), 1536-well
Assay type: biochemical, Dirofilaria immitis
Settings: for D. immitis iPGM PIC50, M: 10 nM D. immitis iPGM, 0.4 mM 3PG, ± s.d. or s.e. of fit, NA = no appreciable inhibition
[1] = Table 6, pIC50 = -log IC50, NA = no appreciable inhibitory activity at highest concentration tested
[2] = Table 8, Ce-2 analogs, NA = no appreciable activity, * estimated from incomplete concentration response curves

| Structure (SMILES) | D. immitis iPGM PIC50, M [M] | pIC50 D. immitis iPGM [1] | pIC50 D. immitis iPGM [2] |
| --- | --- | --- | --- |
| CC[C@H](C)[C@@H]1NC(=O)[C@H](CCC(=O)O)NC(=O)[C@@H]2CCCN2C(=O)[C@H](C)NC(=O)[C@H](CC(N)=O)NC(=O)[C@@H]2CCCN2C(=O)[C@H](Cc2c[nH]c3ccccc23)NC(=O)[C@H](CO)NC(=O)[C@@H](Cc2ccc(O)cc2)NC(=O)CSC[C@@H](C(=O)N[C@@H](CS)C(=O)NCC(N)=O)NC(=O)[C@H](CCCCN)NC(=O)[C@H](Cc2c[nH]c3ccccc23)NC1=O [Bm-1] | 5.99 ± 0.41 | 5.99 | – |
| CC(C)C[C@@H]1NC(=O)[C@@H](Cc2ccc(O)cc2)NC(=O)CSC[C@@H](C(=O)N[C@@H](CC(N)=O)C(=O)N[C@H](C(=O)N[C@@H](CS)C(=O)NCC(N)=O)[C@@H](C)O)NC(=O)[C@H](CC(N)=O)NC(=O)[C@@H]2CCCN2C(=O)[C@H](Cc2c[nH]c3ccccc23)NC(=O)[C@H](CCC(=O)O)NC1=O [Bm-4] | 6.21 ± 0.44 | 6.21 | – |
| CC(C)C[C@@H]1NC(=O)[C@@H](Cc2ccc(O)cc2)NC(=O)CSC[C@@H](C(=O)N[C@@H](CC(N)=O)C(=O)N[C@H](C(=O)N[C@@H](CS)C(N)=O)[C@@H](C)O)NC(=O)[C@H](CC(N)=O)NC(=O)[C@@H]2CCCN2C(=O)[C@H](Cc2c[nH]c3ccccc23)NC(=O)[C@H](CCC(=O)O)NC1=O [Bm-4a] | 6.28 ± 0.40 | – | – |
| CC(C)C[C@@H]1NC(=O)[C@@H](Cc2ccc(O)cc2)NC(=O)CSC[C@@H](C(=O)N[C@@H](CO)C(=O)N[C@H](C(=O)N[C@@H](CS)C(=O)NCC(N)=O)[C@@H](C)O)NC(=O)[C@H](CC(N)=O)NC(=O)[C@@H]2CCCN2C(=O)[C@H](Cc2c[nH]c3ccccc23)NC(=O)[C@H](CC(=O)O)NC1=O [Bm-5] | 6.10 ± 0.56 | 6.10 | – |
| C[C@@H](O)[C@H](NC(=O)[C@H](CO)NC(=O)[C@@H]1CSCC(=O)N[C@H](Cc2ccc(O)cc2)C(=O)N2CCC[C@H]2C(=O)N[C@@H](CCC(=O)O)C(=O)N[C@@H](Cc2c[nH]c3ccccc23)C(=O)N2CCC[C@H]2C(=O)N[C@@H](CC(N)=O)C(=O)N1)C(=O)N[C@@H](CS)C(=O)NCC(N)=O [Bm-6] | 6.26 ± 0.43 | 6.26 | – |
| CC(C)[C@@H]1NC(=O)[C@H](C)NC(=O)[C@@H](Cc2ccc(O)cc2)NC(=O)CSC[C@@H](C(=O)N[C@@H](CCCNC(=N)N)C(=O)N[C@H](C(=O)N[C@@H](CS)C(=O)NCC(N)=O)[C@@H](C)O)NC(=O)[C@H](CC(N)=O)NC(=O)[C@@H]2CCCN2C(=O)[C@H](Cc2c[nH]c3ccccc23)NC1=O [Bm-7] | 5.42 ± 0.46 | 5.42 | – |
| CC(C)C[C@H](NC(=O)[C@H](Cc1ccc(O)cc1)NC(=O)[C@@H]1CSCC(=O)N[C@H](Cc2ccc(O)cc2)C(=O)N[C@@H](CC(=O)O)C(=O)N[C@@H](Cc2ccc(O)cc2)C(=O)N2CCC[C@H]2C(=O)NCC(=O)N[C@@H](CC(=O)O)C(=O)N[C@@H](Cc2ccc(O)cc2)C(=O)N1)C(=O)N[C@@H](Cc1ccc(O)cc1)C(=O)NCC(=O)N[C@H](C(=O)N[C@@H](CS)C(N)=O)[C@@H](C)O [Ce-2a] | 7.82 ± 0.29 | – | 9.91 |
| CC[C@H](C)[C@@H]1NC(=O)[C@H](CCCNC(=N)N)NC(=O)[C@H](Cc2ccccc2)NC(=O)[C@@H]2CCCN2C(=O)[C@H](CC(N)=O)NC(=O)[C@H](C)NC(=O)[C@H](CC(C)C)NC(=O)[C@H]([C@@H](C)O)NC(=O)[C@H]([C@@H](C)CC)NC(=O)[C@H](Cc2ccc(O)cc2)NC(=O)CSC[C@@H](C(=O)NCC(N)=O)NC(=O)[C@H](Cc2c[nH]cn2)NC(=O)[C@H](CC(C)C)NC1=O [Ce-3] | 5.18 ± 0.03 | – | – |
| CC(=O)N[C@H](Cc1ccc(O)cc1)C(=O)N[C@@H](CC(=O)O)C(=O)N[C@@H](Cc1ccc(O)cc1)C(=O)N1CCC[C@H]1C(=O)NCC(=O)N[C@@H](CC(=O)O)C(=O)N[C@@H](Cc1ccc(O)cc1)C(=O)N[C@@H](CO)C(=O)N[C@@H](Cc1ccc(O)cc1)C(=O)N[C@@H](CC(C)C)C(=O)N[C@@H](Cc1ccc(O)cc1)C(=O)NCC(=O)N[C@H](C(=O)N[C@@H](CS)C(=O)NCC(N)=O)[C@@H](C)O [Ce-L2] | 5.18 ± 0.17 | – | 5.18 · |
